Tested on: Huh-7 cells
Settings: human

Compound | Cytotoxicity
CC(C)(C)OC(=O)CN(Cc1ccc(Cl)cc1)Cc1ccc([N+](=O)[O-])s1 [GSK4112] | Neither GSK4112 nor SR9009 showed any detectable cytotoxicity
CCOC(=O)N1CCC(CN(Cc2ccc(Cl)cc2)Cc2ccc([N+](=O)[O-])s2)C1 (centres unmarked) [SR9009] | Neither GSK4112 nor SR9009 showed any detectable cytotoxicity

— patent US20210102215A1, “TREATMENT AND PREVENTION OF VIRAL INFECTION” (priority 2016, published 2021)
